System: T. cruzi Tulahuen in NIH-3T3, beta-gal fluorescence, 4 d
Experiment: anti-Chagas amastigote proliferation inhibitors – cell-based (AID 1159559)

## CC(C)(C)c1ccc(NC2(C(N)=O)CCN(Cc3ccccc3)CC2)cc1
  IC50: 320 nM

From PubChem BioAssay AID1159559 (GlaxoSmithKline (GSK), 2015)
